The numbers were not newly measured in patent publication US9358281B2, “Methods, agents and peptides for inducing an innate immune response in HIV vaccination” (New York University, priority 2009, dated 2016), which cites them from elsewhere.

The target of the data set is Cyclophilin A (Homo sapiens). To be noted: Reimer et al., 1997; cited from earlier work.

As to “second peptide: SEQ ID NO: 16 peptide with Gly9 replaced with Ala and Met16 changed to norleucine (Nle) (DRVHPVHAAPIAPGQMREPRGSDIA; Met16 to norleucine; Human Immunodeficiency Virus)”, the “activity (interaction with Cyclophilin A)” value is listed as “also has activity”.
